Assays:
Experiment in all cases: SPR
[1] = biological target: cat ACE2 ectodomain fused with mFc (cat (Felis catus)) (UniProt Q56H28)
[2] = biological target: Chinese hamster ACE2 ectodomain fused with mFc (Chinese hamster (Cricetulus griseus))
[3] = biological target: horse ACE2 ectodomain fused with mFc (horse (Equus caballus))
[4] = biological target: bovine ACE2 ectodomain fused with mFc (bovine (Bos taurus)) (UniProt Q58DD0)
[5] = biological target: sheep ACE2 ectodomain fused with mFc (sheep (Ovis aries))
[6] = biological target: minke whale ACE2 ectodomain fused with mFc (minke whale (Balaenoptera acutorostrata scammoni))
[7] = biological target: fox ACE2 ectodomain fused with mFc (fox (Vulpes vulpes))
[8] = biological target: pig ACE2 ectodomain fused with mFc (pig (Sus scrofa))
[9] = biological target: golden hamster ACE2 ectodomain fused with mFc (golden hamster (Mesocricetus auratus))
[10] = biological target: rabbit ACE2 ectodomain fused with mFc (rabbit (Oryctolagus cuniculus))
[11] = biological target: civet ACE2 ectodomain fused with mFc (civet (Paguma larvata)) (UniProt Q56NL1)

| Substance | Kd [1] | Kd [2] | Kd [3] | Kd [4] | Kd [5] | Kd [6] | Kd [7] | Kd [8] | Kd [9] | Kd [10] | Kd [11] |
| --- | --- | --- | --- | --- | --- | --- | --- | --- | --- | --- | --- |
| BANAL-20-52-RBD (domain or fragment) | < 100 nM | < 100 nM | < 100 nM | < 100 nM | < 100 nM | < 100 nM | < 100 nM | < 100 nM | < 100 nM | < 100 nM | – |
| CX1-RBD (domain or fragment) | – | – | – | – | – | – | – | < 5 nM | – | < 5 nM | 5500 nM |

— PMC12363175
